The target of experiment [1] is T1, His-PABP, fluorophore-labelled (UniProt P11940 1-636, RED-tris-NTA 2nd Generation fluorophore on the His tag). Briefly: MST; as the PABP:Paip1 titration, with SUD added at a constant final concentration of 19 μM/tube. The note with it: both partners purified.
Experiment [2] addresses T1, His-PABP, fluorophore-labelled. Put plainly: MST; His-PABP labelled with RED-tris-NTA, 50 nM; Paip1 serially diluted from 140 μM; 20 mM HEPES, 150 mM NaCl, 0.05% Tween-20, pH 8.0; 22°C; Monolith NT.115. The note with it: both partners purified.

B1: Paip1 protein without His-tag, purified (natural protein, human, UniProt Q9H074-2 1-400, looked up)
chain: MSDGFDRAPEQTRPLRAPPSSQDKIPQQNSESAMAKPQVVVAPVLMSKLSVNAPEFYPSGYSSSYTESYEDGCEDYPTLSEYVQDFLNHLTEQPGSFETEIEQFAETLNGCVTTDDALQELVELIYQQATSIPNFSYMGARLCNYLSHHLTISPQSGNFRQLLLQRCRTEYEVKDQAAKGDEVTRKRFHAFVLFLGELYLNLEIKGTNGQVTRADILQVGLRELLNALFSNPMDDNLICAVKLLKLTGSVLEDAWKEKGKMDMEEIIQRIENVVLDANCSRDVKQMLLKLVELRSSNWGRVHATSTYREATPENDPNYFMNEPTFYTSDGVPFTAADPDYQEKYQELLEREDFFPDYEENGTDLSGAGDPYLDDIDDEMDPEIEEAYEKFCLESERKRKQ
On to B1, for which the figures for the Kd in experiment [1] and in experiment [2] were 1.9 µM and roughly 8.4 µM, respectively.

The term Kd denotes a measure of binding affinity in units of concentration. A high value points to a looser complex.

The values are drawn from paper PMC8167360, “The SARS‐unique domain (SUD) of SARS‐CoV and SARS‐CoV‐2 interacts with human Paip1 to enhance viral RNA translation” (The EMBO Journal, 2021).
